Results of unrelated studies side by side (data: NIAID ChemDB).

Common to all: tests on isolated targets; agent: HIV-1; protein: Reverse transcriptase; endpoint: IC50

ICn is the concentration giving n% inhibition. Neighbouring rows are from separate reports. a–b is a range or a potency band. Blank or dashed fields: not listed here.

structure | strain or isolate | changes | method | result
Cc1ccc(-n2c(SCC(=O)Nc3ccc(S(=O)(=O)NCCC(=O)O)cc3Cl)nnc2C(F)F)c2c1CCCC2 |  |  | nucleotide incorporation / radiometric | <0.05 µM
CCNc1cccnc1N1CCN(C(=O)c2cc3cc(OC)c(OC)cc3[nH]2)CC1 |  |  | nucleotide incorporation | <100 µM
CCOC(=O)N1CCC(NC(=O)c2ccc(NC(=O)CSc3nnc(Br)n3-c3ccc(CC)c4ccccc34)c(Cl)c2)CC1 |  | RT-Y181C | nucleotide incorporation / radiometric | <0.05 µM
CCCN1c2nc(-c3cn[nH]c3)ccc2NC(=O)c2cccnc21 | WT |  | nucleotide incorporation / radiometric | <1 µM
CC(C)NS(=O)(=O)c1ccc(NC(=O)CSc2nnnn2-c2ccc(C(C)(C)C)cc2Cl)c(Cl)c1 | WT |  | PicoGreen / fluorescence | <1 µM
CC(C)Nc1cccnc1N1CCN(C(=O)c2cc3cc(F)ccc3[nH]2)CC1 |  |  | nucleotide incorporation | <100 µM
CC(C)(C)c1ccc(-n2nnnc2SCC(=O)Nc2ccc(C(=O)Nc3ccc(N4CCOCC4)cc3)cc2Cl)c(Cl)c1 | WT |  | PicoGreen / fluorescence | <1 µM
CC(C)Nc1cccnc1N1CCN(C(=O)c2cc3ccc4ccccc4c3[nH]2)CC1 |  |  | nucleotide incorporation | <100 µM
Cc1cc(OCc2nc3ccccc3s2)cc(Oc2cc(Cl)cc(C#N)c2)c1 |  |  | nucleotide incorporation / radiometric | <20 µM
Cc1cc(S(N)(=O)=O)ccc1NC(=O)CSc1nnc(Br)n1-c1ccc(C2CCC2)c2ccccc12 |  | RT-Y188L | nucleotide incorporation / radiometric | >0.1 µM
CN1C(=O)c2cccnc2N(C)c2nc(-c3ccc[nH]3)ccc21 |  | RT-Y188L | nucleotide incorporation / radiometric | >1 µM
CCc1ccc(-n2c(Br)nnc2SCC(=O)Nc2ccc(C(=O)NCCOC)cc2Cl)c2ccccc12 |  |  | nucleotide incorporation / radiometric | <0.05 µM
COC1CN(c2ccc3c(COc4ccc(Cl)c(Oc5cc(Cl)cc(C#N)c5)c4)[nH]nc3n2)C1 |  |  | nucleotide incorporation / radiometric | <20 µM
CCN1c2ncccc2C(=O)N(C)c2ccc(-c3cnn(C(C)=O)c3)nc21 |  | RT-Y188L | nucleotide incorporation / radiometric | <1 µM
CCN1c2ncc(CCc3ccncc3)cc2C(=O)N(C)c2ccc(N)nc21 | WT |  | nucleotide incorporation / radiometric | <1 µM
CCc1ccc(-n2c(Br)nnc2SCC(=O)Nc2ccc(C(=O)NCCCCO)cc2Cl)c2ccccc12 |  |  | nucleotide incorporation / radiometric | <0.05 µM
COc1cccc(-c2nnc3c4ccccc4c(N4CCc5ccccc5C4)nn23)c1 | 98US_MSC5016 |  | RT activity / fluorescence | >100 µM
CC(C)(C#Cc1ccc(NC(=O)CSc2nnnn2-c2cc(Br)ccc2Cl)c(Cl)c1)C(=O)O |  | RT-K103 Y181C | PicoGreen / fluorescence | <1 µM
Cc1cc(C)c(-n2c(SCC(=O)Nc3ccc(S(N)(=O)=O)cc3Cl)nnc2C(F)(F)F)c2c1CCCC2 |  |  | nucleotide incorporation / radiometric | <0.05 µM
CC(C)Nc1cccnc1N1CCN(Cc2cc3cc(F)ccc3[nH]2)CC1 |  |  | nucleotide incorporation | <100 µM
O=C(CSc1nnc(Br)n1-c1ccc(C2CC2)c2ccccc12)Nc1ccc(C(=O)O)cc1Cl |  |  | nucleotide incorporation / radiometric | <0.05 µM
CCN1c2ncccc2C(=O)N(C)c2ccc(-c3cc[nH]c3C#N)nc21 |  | RT-Y181C | nucleotide incorporation / radiometric | <1 µM
CC(C)(O)C#Cc1ccc(NC(=O)CSc2nnnn2-c2ccc(C3CC3)cc2Cl)c(Br)c1 | WT |  | PicoGreen / fluorescence | <1 µM
Cc1cc(C(=O)O)ccc1NC(=O)CSc1nnc(Br)n1-c1ccc(C2CC2)c2ccccc12 |  |  | nucleotide incorporation / radiometric | <0.05 µM
CC(C)(C#Cc1ccc(NC(=O)CSc2nnnn2-c2ccc(C3CC3)cc2Cl)c(Cl)c1)NC(=O)CNCCCn1ccnc1 | WT |  | PicoGreen / fluorescence | <1 µM
CC(C)c1nnc2c3ccccc3c(N3CCc4ccccc4C3)nn12 | 98US_MSC5016 |  | RT activity / fluorescence | 5.31 µM
CC(C)(C#Cc1ccc(NC(=O)CSc2nnnn2-c2ccc(C3CC3)cc2Cl)c(Cl)c1)NC(=O)CN1CCCC1 |  | RT-K103 Y181C | PicoGreen / fluorescence | <1 µM
CCc1ccc(-n2c(Br)nnc2SCC(=O)Nc2ccc(S(=O)(=O)O)cc2Br)c2ccccc12 |  |  | nucleotide incorporation / radiometric | <0.05 µM
CC(C)(C)c1ccc(-n2nnnc2SCC(=O)Nc2ccc(-c3ncc[nH]3)cc2Cl)c(Cl)c1 | WT |  | PicoGreen / fluorescence | <1 µM
CCc1ccc(-n2c(Br)nnc2SCC(=O)Nc2ccc(C(=O)NCCN3CCCC3)cc2Cl)c2ccccc12 |  | RT-Y181C | nucleotide incorporation / radiometric | <0.05 µM
CC(C)(O)C#Cc1ccc(NC(=O)CSc2nnnn2-c2cc3c(cc2Cl)CCC3)c(Cl)c1 | WT |  | PicoGreen / fluorescence | <1 µM
Cc1cc(S(N)(=O)=O)ccc1NC(=O)CSc1nnc(Br)n1-c1ccc(C2CC2)c2ccccc12 |  | RT-Y181C | nucleotide incorporation / radiometric | <0.05 µM
CC(C)(C)c1ccc(-n2nnnc2SCC(=O)Nc2ccc(-c3ccc(C(=O)O)s3)cc2Cl)c(Cl)c1 |  | RT-K103 Y181C | PicoGreen / fluorescence | <1 µM
CCc1ccc(-n2c(Br)nnc2SCC(=O)Nc2ccc(C(=O)N3CCC(O)CC3)cc2Cl)c2ccccc12 |  | RT-Y188L | nucleotide incorporation / radiometric | >0.1 µM
CNc1ccc2c(COc3ccc(Cl)c(Oc4cc(Cl)cc(C#N)c4)c3)[nH]nc2n1 |  |  | nucleotide incorporation / radiometric | <20 µM
CCNc1cccnc1N1CCCN(C(=O)c2cc3ccccc3[nH]2)CC1 |  |  | nucleotide incorporation | <100 µM
Cc1cc(OCCN(C)C)ccc1NC(=O)COc1ccc(Cl)c(Oc2cc(Cl)cc(C#N)c2)c1 |  |  | nucleotide incorporation / radiometric | <20 µM
CC(C)(C#Cc1ccc(NC(=O)CSc2nnnn2-c2ccc(C3CC3)cc2Cl)c(Cl)c1F)C(=O)O |  | RT-K103 Y181C | PicoGreen / fluorescence | <1 µM
CCN1c2ncccc2C(=O)N(C)c2ccc(-c3cn[nH]c3C)nc21 |  | RT-Y188L | nucleotide incorporation / radiometric | <1 µM
CCOC(=O)CN(C)C(=O)c1ccc(NC(=O)CSc2nnc(Br)n2-c2ccc(CC)c3ccccc23)c(Cl)c1 |  |  | nucleotide incorporation / radiometric | <0.05 µM
CCN1c2ncccc2C(=O)N(C)c2ccc(-c3cc[nH]c3C(C)=O)nc21 | WT |  | nucleotide incorporation / radiometric | <1 µM
Cc1cc(S(N)(=O)=O)ccc1NC(=O)CSc1nnc(CF)n1-c1ccc(C)c2c1CCCC2 |  | RT-Y181C | nucleotide incorporation / radiometric | >0.1 µM
CC(C)(C)c1ccc(-n2nnnc2SCC(=O)Nc2ccc(C(=O)NCCC(=O)O)cc2Cl)c(Cl)c1 | WT |  | PicoGreen / fluorescence | <1 µM
CCc1ccc(-n2c(SCC(=O)Nc3ccc(S(N)(=O)=O)cc3C)nnc2C(F)F)c2ccccc12 |  | RT-Y181C | nucleotide incorporation / radiometric | 0.05–0.1 µM
O=C(CSc1nnnn1-c1ccc(C2CC2)cc1Cl)Nc1ccc(S(=O)(=O)N2CCC(C(=O)O)CC2)cc1Cl |  | RT-K103 Y181C | PicoGreen / fluorescence | <1 µM
CCN1C(=O)c2cccnc2N(C)c2nc(-c3ccc[nH]3)ccc21 |  | RT-Y188L | nucleotide incorporation / radiometric | >1 µM
Cc1cc(C(=O)O)ccc1NC(=O)CSc1nnc(C(F)F)n1-c1ccc(C)c2c1CCCC2 |  |  | nucleotide incorporation / radiometric | <0.05 µM
COc1ccc2[nH]c(C(=O)N3CCN(c4ncccc4NC(C)(C)C)CC3)cc2c1 |  |  | nucleotide incorporation | <100 µM
CC(C)CCC(=O)Nc1ccc(NC(=O)CSc2nnnn2-c2ccc(C(C)(C)C)cc2Cl)c(Cl)c1 | WT |  | PicoGreen / fluorescence | <1 µM
CCN1c2ncc(CCc3ccncc3)cc2C(=O)N(C)c2ccc(I)nc21 |  | RT-Y181C | nucleotide incorporation / radiometric | <1 µM
CC(C)(NC(=O)c1ccc(NC(=O)CSc2nnnn2-c2ccc(C3CC3)cc2Cl)c(Cl)c1)C(=O)O |  | RT-K103 Y181C | PicoGreen / fluorescence | <1 µM
CCN1c2ncc(CC(O)c3ccncc3)cc2C(=O)N(C)c2ccc(Cl)nc21 | WT |  | nucleotide incorporation / radiometric | <1 µM
CC(C)(C#Cc1ccc(NC(=O)CSc2nnnn2-c2ccc(C3CC3)cc2Cl)c(Cl)c1)NC(=O)c1cc[n+]([O-])cc1 |  | RT-K103 Y181C | PicoGreen / fluorescence | <1 µM
FC(F)(F)c1cccc2c1CCN(c1nn3c(C4CC4)nnc3c3ccccc13)C2 | KER2008 |  | RT activity / fluorescence | 22 µM
CNC(=O)NS(=O)(=O)c1ccc(NC(=O)CSc2nnnn2-c2ccc(C3CC3)cc2Cl)c(Cl)c1 |  | RT-K103 Y181C | PicoGreen / fluorescence | <1 µM
CCNc1cccnc1N1CCN(C(=O)c2cc3cc(F)ccc3[nH]2)CC1 |  |  | nucleotide incorporation | <100 µM
CC(C)(C#Cc1ccc(NC(=O)CSc2nnnn2-c2ccc(CC3CC3)cc2Cl)c(Cl)c1)C(=O)O | WT |  | PicoGreen / fluorescence | <1 µM
Cc1nnc2c3ccccc3c(N3Cc4ccccc4C(C)(C)C3)nn12 | 98US_MSC5016 |  | RT activity / fluorescence | 26.6 µM
CCNc1cccnc1N1CCCN(C(=O)c2cc3cc(F)ccc3[nH]2)CC1 |  |  | nucleotide incorporation | <100 µM
CCN1c2nc(C(F)(F)F)ccc2NC(=O)c2cc(CCOc3cc[n+]([O-])c4ccccc34)cnc21 |  | RT-Y188L | nucleotide incorporation / radiometric | 0.578 µM
CCc1ccc(-n2c(SCC(=O)Nc3ccc(S(N)(=O)=O)cc3Cl)nnc2C(F)F)c2c1CCCC2 |  | RT-Y188L | nucleotide incorporation / radiometric | >0.1 µM
CCN1c2ncc(CC(O)c3ccncc3)cc2C(=O)N(C)c2cccnc21 | WT |  | nucleotide incorporation / radiometric | >1 µM
CCN1c2ncccc2C(=O)N(C)c2ccc(-c3c[nH]c(C#N)c3)nc21 |  | RT-Y181C | nucleotide incorporation / radiometric | <1 µM
CC(C)Nc1cccnc1N(C)CCCCCCN(C)C(=O)c1cc2ccccc2[nH]1 |  |  | nucleotide incorporation | <100 µM
CC(C)C[C@H](NC(=O)c1ccc(NC(=O)CSc2nnc(Br)n2-c2ccc(C3CC3)c3ccccc23)c(Cl)c1)C(=O)O |  | RT-Y181C | nucleotide incorporation / radiometric | <0.05 µM
Cc1cc(Cl)c(-n2nnnc2SCC(=O)Nc2ccc(C#CC(C)(C)C(=O)O)cc2Cl)cc1C(F)(F)F | WT |  | PicoGreen / fluorescence | <1 µM
CN(C)c1ccc2c(c1)CN(c1nn3c(C4CC4)nnc3c3ccccc13)CC2 | 98US_MSC5016 |  | RT activity / fluorescence | 0.48 µM
Cc1ccc(-n2nnnc2SCC(=O)Nc2ccc(-c3ccc(CC(N)=O)cc3)cc2Cl)c(Cl)c1 |  | RT-K103 Y181C | PicoGreen / fluorescence | <1 µM
FC(F)(F)c1nnc2c3ccccc3c(N3CCc4ccccc4C3)nn12 | KER2008 |  | RT activity / fluorescence | 0.54 µM

Again, the opening 7 rows:

structure,strain or isolate,changes,method,result
Cc1ccc(-n2c(SCC(=O)Nc3ccc(S(=O)(=O)NCCC(=O)O)cc3Cl)nnc2C(F)F)c2c1CCCC2,,,nucleotide incorporation / radiometric,<0.05 µM
CCNc1cccnc1N1CCN(C(=O)c2cc3cc(OC)c(OC)cc3[nH]2)CC1,,,nucleotide incorporation,<100 µM
CCOC(=O)N1CCC(NC(=O)c2ccc(NC(=O)CSc3nnc(Br)n3-c3ccc(CC)c4ccccc34)c(Cl)c2)CC1,,RT-Y181C,nucleotide incorporation / radiometric,<0.05 µM
CCCN1c2nc(-c3cn[nH]c3)ccc2NC(=O)c2cccnc21,WT,,nucleotide incorporation / radiometric,<1 µM
CC(C)NS(=O)(=O)c1ccc(NC(=O)CSc2nnnn2-c2ccc(C(C)(C)C)cc2Cl)c(Cl)c1,WT,,PicoGreen / fluorescence,<1 µM
CC(C)Nc1cccnc1N1CCN(C(=O)c2cc3cc(F)ccc3[nH]2)CC1,,,nucleotide incorporation,<100 µM
CC(C)(C)c1ccc(-n2nnnc2SCC(=O)Nc2ccc(C(=O)Nc3ccc(N4CCOCC4)cc3)cc2Cl)c(Cl)c1,WT,,PicoGreen / fluorescence,<1 µM